Laboratory results: PubChem BioAssay AID624099 (ICCB-Longwood, 2012)
In all, the deposit lists about 21,000 reagents; shown is an unselected part. In the full data, 497 (2.4%) got an active call. 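Higher z means weaker E2 silencing; only reporter increases were scored, and knock-downs that hurt cell survival may mask genuine repressor factors.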 Entries without a mark were called inactive. No sequences are given here.

Test: 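Host factors E2 relies on to silence an HPV18 LCR reporter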 (primary screen)
System: human C33A cervical carcinoma cells (HPV-negative) stably expressing BPV1 E2 and an HPV18 LCR luciferase reporter
Reagents: siRNA pool against human genes, 40 nM
Duration: 72 h
Measurement: 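Per-well luciferase luminescence, z-scored on each plate against the plate mean and SD with control wells left out, then averaged across three replicate plates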
Reading the numbers: mean z-score and z-score: higher = stronger reporter signal, weaker E2 silencing
Rule for the call: 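Hit if mean z-score reaches 2 and two or more of three replicate z-scores also reach 2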

For UBXN8, what does the deposit list?
mean z-score: 0.33; z-score, replicate A: 0.48; z-score, replicate B: 0.43; z-score, replicate C: 0.07

Which result is listed for GUCY1A1?
mean z-score: -0.77; z-score, replicate A: -1.04; z-score, replicate B: -0.88; z-score, replicate C: -0.4

How did the screen score NUBPL?
mean z-score: -1.32; z-score, replicate A: -1.02; z-score, replicate B: -1.53; z-score, replicate C: -1.39

How did the screen score RRP7BP?
mean z-score: -0.27; z-score, replicate A: -0.02; z-score, replicate B: -0.64; z-score, replicate C: -0.16

How did the screen score HYDIN?
mean z-score: -0.24; z-score, replicate A: -0.02; z-score, replicate B: -0.3; z-score, replicate C: -0.4

What did the screen give for ETNK1?
mean z-score: -0.33; z-score, replicate A: -0.14; z-score, replicate B: -0.73; z-score, replicate C: -0.12

With EBF4, how do the results read?
mean z-score: -0.34; z-score, replicate A: -0.29; z-score, replicate B: -0.37; z-score, replicate C: -0.35

For NHERF4, what does the deposit list?
mean z-score: -0.13; z-score, replicate A: 0.25; z-score, replicate B: -0.03; z-score, replicate C: -0.59

What is on record for MYOM1?
mean z-score: 0.67; z-score, replicate A: 0.58; z-score, replicate B: 0.75; z-score, replicate C: 0.7

With FCGR2C, how do the results read?
mean z-score: -0.68; z-score, replicate A: -0.48; z-score, replicate B: -0.78; z-score, replicate C: -0.78

How did the screen score NME8?
mean z-score: -0.16; z-score, replicate A: 0.08; z-score, replicate B: -0.38; z-score, replicate C: -0.17

With LOC388688 (retired record), how do the results read?
mean z-score: -0.21; z-score, replicate A: -0.24; z-score, replicate B: -0.11; z-score, replicate C: -0.29

2 entries from above, ordered by “z-score, replicate A”, high to low:
HYDIN: mean z-score = -0.24; z-score, replicate A = -0.02; z-score, replicate B = -0.3; z-score, replicate C = -0.4
ETNK1: mean z-score = -0.33; z-score, replicate A = -0.14; z-score, replicate B = -0.73; z-score, replicate C = -0.12
